Source: patent US8975078B2, “Method for expressing a mouse olfactory receptor Olfr15 on a cell membrane” (Panasonic Corporation, priority 2011, dated 2015)

System: mouse olfactory receptor Olfr15
Experiment: Expression rate of mouse olfactory receptor Olfr15 on the cell membrane of transfected HEK293T cells (immunofluorescence)
Type: cell-based
Conditions: Comparative Example 3: phenylarsine oxide 1.7 μg/ml instead of chlorpromazine, otherwise as Example 1

Structure (SMILES): O=[As]c1ccccc1 (stereo not shown)
- Expression rate on the cell membrane (%): 8.9%
